Measured values from several laboratories, pooled; numbers as filed in NIAID ChemDB.

Common to all: whole-cell or culture tests; species: Mycobacterium tuberculosis

MIC bound comes from a single tested concentration.

compound,method,cells,read-out,tested at,strain,value
CC(=O)Oc1ccccc1C(=O)Nc1ncc([N+](=O)[O-])s1,visual reading,-,MIC,-,T spoligotype 53,18.7 µg/mL
CC(NNC(=O)c1ccncc1)c1cccc(C(F)(F)F)c1,-,-,MIC,-,Rifampicin-resistant,3.13 µg/mL
O=C1Nc2ccccc2Oc2ccccc21,BACTEC,-,inhibition,12.5 µg/mL,H37Rv,71%
Cc1ccc(=O)[nH]n1,-,-,MIC,-,-,1 µg/mL
COc1ccc(/C(O)=C/c2nc3cc(Cl)ccc3oc2=O)cc1,resazurin,-,MIC,-,Clinical isolate,4 µg/mL
CC(=O)Nc1ccc(C(=O)N/N=C/c2ccccc2)cc1,-,-,MIC,-,-,>40 µg/mL
C/C=C/c1ccc2c(c1)[C@@H](C)[C@H](c1ccc(OC)cc1)O2,resazurin / absorbance,-,MIC,-,Clinical isolate 49,7.8 µg/mL
CC(NNC(=O)c1cc[n+]([B]C#N)cc1)c1ccc(Cl)c(Cl)c1,-,-,MIC,-,H37Rv,>6.25 µg/mL
O=S(=O)(c1ccc(Cl)cc1)c1cnc2ccccc2c1N1CCCC1,resazurin,-,MIC,-,Clinical isolate,8 µg/mL
c1cc2n(n1)CCN2,BACTEC,-,MIC bound,-,H37Rv,>12.5 µg/mL
Cc1cccc2nc3n(c(=O)c12)-c1ccc(F)cc1C3=O,-,-,MIC,-,MDR 10038,1 µg/mL
CN[C@@H]1[C@H](O[C@H]2[C@H](O[C@H]3[C@H](O)[C@@H](O)[C@H](N=C(N)N)[C@@H](O)[C@@H]3N=C(N)N)O[C@@H](C)[C@]2(O)C=O)O[C@@H](CO)[C@H](O)[C@H]1O,-,-,MIC,-,91196,<2 µg/mL
CCCOc1cccc(NC(=O)OCCN2CCOCC2)c1,-,-,MIC,-,My 331/88,1000 µM
Cc1ccc(S(=O)(=O)[C@H]2CS(=O)(=O)C[C@@H]2NCCc2ccccc2)cc1,resazurin,-,MIC,-,18b,16 µg/mL
CCCCCCOc1cccc(NC(=O)OCCN2CCOCC2)c1,-,-,MIC,-,My 331/88,16 µM
Cc1nc(Nc2ccc(Cl)c(Cl)c2)sc1C(/C=C/c1ccc2c(c1)OCO2)=N/Nc1ccc([N+](=O)[O-])cc1[N+](=O)[O-],resazurin,-,MIC,-,H37Rv,>6.25 µg/mL
CCOC(=O)Nc1cc(Cl)c(N)c(N)n1,-,-,inhibition,12.5 µg/mL,H37Rv,0%
CO[C@H]1/C=C/O[C@@]2(C)Oc3c(C)c(O)c4c(O)c(c(/C=N/N5CCN(C/C=C/c6ccccc6)CC5)c(O)c4c3C2=O)NC(=O)/C(C)=C\C=C\[C@H](C)[C@H](O)[C@@H](C)[C@@H](O)[C@@H](C)[C@H](OC(C)=O)[C@@H]1C,-,-,MIC,-,MTB29 (MDR),>8 µg/mL
C=C/C=N/NC(=O)c1ccccc1Cl,-,-,MIC,-,-,10 µg/mL
NNC(=O)c1ccncc1,-,-,MIC,-,9133,≥0.2 µg/mL
CCOC(=O)Nc1cc(NCC(=O)c2ccc(C)c(C)c2)c([N+](=O)[O-])c(N)n1,-,-,EC50,-,H37Rv,>12.5 µg/mL
CCCCCCCCCN1C(=O)c2ccnnc2Oc2cc(C)ccc21,BACTEC,-,EC50,-,H37Rv,>12.5 µg/mL
C/C(=N\NC(=O)c1ccncc1)c1ccc(F)cc1,-,-,MBC,-,Rifampicin-resistant,>1.6 µg/mL
O=S(=O)(NCCC1=CCCCC1)c1ccc(Cl)s1,resazurin,-,MIC,-,18b,16 µg/mL
C/C=C/c1ccc2oc(-c3ccc(O)c(OC)c3)c(C)c2c1,resazurin / absorbance,-,MIC,-,Clinical isolate 27,3.9 µg/mL
O=C(N/N=C/c1ccccc1F)c1ccncc1,-,-,MIC,-,Thiacetazone-resistant,>1.6 µg/mL
Cc1ccc2c(c1)N(CCC(C)C)C(=O)c1cc(Cl)nnc1O2,BACTEC,-,inhibition,12.5 µg/mL,H37Rv,75%
O=C1c2cc(F)ccc2-n2c1nc1ncccc1c2=O,-,-,MIC,-,H37Rv,<0.5 µg/mL
O=NNc1ccc(C(=O)O)cn1,BACTEC,-,MIC,-,H37Rv,≥12.5 µg/mL
O=C(NNCc1ccccc1)c1ccncc1,-,-,MIC,-,H37Rv (ethionamide-resistant),>31.25 µg/mL
[N-]=[N+]=N[C@H]1[C@H](O)[C@@H](CO)O[C@H]1n1cnc2c(N)ncnc21,BACTEC,-,MIC bound,-,H37Rv,>12.5 µg/mL
O=C(NNC(=O)c1cccc(Cl)c1)c1cccc(Cl)c1,-,-,MIC,-,-,>200 µg/mL
CCOc1ccc(S(=O)(=O)[C@H]2CS(=O)(=O)C[C@@H]2NCC(C)C)cc1,resazurin,-,MIC,-,18b,16 µg/mL
O=C1c2cc(Cl)nnc2Oc2ccc(Cl)cc2N1CC1CCCCC1,BACTEC,-,inhibition,12.5 µg/mL,H37Rv,59%
CCOC(=O)Nc1cc(NCc2ccc(S(N)(=O)=O)cc2)c(N)c(N)n1,-,-,inhibition,12.5 µg/mL,H37Rv,0%
CN1C(=O)c2ccccc2N=CN1C(=O)Nc1ccccc1,BACTEC,-,inhibition,12.5 µg/mL,H37Rv,17%
O=C(NNCc1cccc(C(F)(F)F)c1)c1ccncc1,-,-,MIC,-,Ethambutol-resistant,0.39 µg/mL
CC(C)=NNC(=O)c1ccc(N)cc1O,-,-,MIC,-,-,>200 µg/mL
Cc1cccc(C2C(=S)NC(=O)C3=C2NCN(CCc2ccccc2)C3)n1,resazurin,-,MIC,-,Clinical isolate,16 µg/mL
CCOC(=O)Nc1cc2c(c(N)n1)N=C(c1ccc(OC)cc1)CS2,-,-,EC50,-,H37Rv,>12.5 µg/mL
Cc1ccc(S(=O)(=O)N/N=C/c2oc(-c3ccncc3)c(-c3ccncc3)c2[N+](=O)[O-])cc1,BACTEC,-,inhibition,12.5 µg/mL,H37Rv,-17%
CCCc1ccc2oc(-c3ccc(O)c(OC)c3)c(C)c2c1,resazurin / absorbance,-,MIC,-,Clinical isolate 4851,7.8 µg/mL
C/C(=N\NC(=O)c1ccncc1)c1ccccc1,-,-,MIC,-,Ethambutol-resistant,0.2 µg/mL
Cc1cc(=O)oc2c(C)c3oc4ccncc4c3cc12,BACTEC,-,inhibition,12.5 µg/mL,H37Rv,5%
O=C(NCCCN1c2ccccc2Sc2ccccc21)N1C(=O)/C(=C\c2ccc([N+](=O)[O-])cc2)SC1c1ccc([N+](=O)[O-])cc1,agar,-,inhibition,50 µg/mL,H37Rv,82%
CC(=O)NNC(=O)CCCl,-,-,MIC,-,-,>200 µg/mL
CCOC(=O)Nc1cc(N)c2c(n1)OCC(N=[N+]=[N-])=N2,-,-,inhibition,12.5 µg/mL,H37Rv,0%
CC(=O)N(C)c1ccc(Nc2ccc(Nc3ccc(N(C)C(C)=O)cc3)c3c2C(=O)c2ccccc2C3=O)cc1,BACTEC,-,MIC bound,-,H37Rv,>12.5 µg/mL
O=C(N/N=C/c1cccc(C(F)(F)F)c1)c1ccncc1,-,-,MIC,-,Ciprofloxacin-resistant,0.39 µg/mL
O=C(NCCCN1c2ccccc2Sc2ccccc21)N1C(=O)/C(=C\c2ccc(Cl)cc2)SC1c1ccc(Cl)cc1,agar,-,inhibition,50 µg/mL,H37Rv,74%
CCCCCCCCCOc1ccc(NC(=O)OCC[NH+]2CCCC2)cc1,-,-,MIC,-,My 331/88,16 µM
O=C1CSC(c2ccccc2)N1C(=O)NCCCN1c2ccccc2Sc2ccccc21,agar,-,inhibition,50 µg/mL,H37Rv,35%
C[C@@H]1CN(c2c(F)c(N)c3c(=O)c(C(=O)O)cn(C4CC4)c3c2F)C[C@H](C)N1,-,-,MIC,-,Isolate 2,32 µg/mL
CCCCCCCCCN1C(=O)c2cc(Cl)nnc2Oc2ccc(C)cc21,BACTEC,-,inhibition,12.5 µg/mL,H37Rv,34%
CO[C@H]1/C=C/O[C@@]2(C)Oc3c(C)c(O)c4c(=O)c(c5oc6cc(N7CCN(CC(C)C)CC7)cc(=O)c6nc5c4c3=C2O)NC(=O)/C(C)=C\C=C\[C@H](C)[C@H](O)[C@@H](C)[C@@H](O)[C@@H](C)[C@H](OC(C)=O)[C@@H]1C,-,-,MIC,-,H37Rv-pSL (Leu 531 mutation),8 µg/mL
O=C1CSC(c2cccc(O)c2)N1C(=O)NCCCN1c2ccccc2Sc2ccccc21,agar,-,inhibition,50 µg/mL,H37Rv,70%
Cc1c(-c2cnccn2)ssc1=S,BACTEC,-,inhibition,12.5 µg/mL,H37Rv,28%
CC(=O)NC[C@H]1CN(c2ccc(N3CCOCC3)c(F)c2)C(=O)O1,-,-,MIC,-,3S,0.5 µg/mL
O=C1c2cc(Cl)ccc2-n2c1nc1ccccc1c2=O,-,-,MIC,-,MDR 10038,1 µg/mL
O=C(N/N=C/c1ccco1)C(=O)N/N=C/c1ccco1,BACTEC,-,inhibition,12.5 µg/mL,H37Rv,17%
CN1CCN(c2cccc3c2C(=O)c2nc4ccccc4c(=O)n2-3)CC1,-,-,MIC,-,MDR 10038,>5 µg/mL
O=C1c2c(O)ccc(O)c2C(=O)c2c(NCCCCCO)ccc(NCCCCCO)c21,BACTEC,-,inhibition,12.5 µg/mL,H37Rv,-19%
NCC[C@H](O)C(=O)N[C@@H]1C[C@H](N)[C@@H](O[C@H]2O[C@H](CN)[C@@H](O)[C@H](O)[C@H]2O)[C@H](O)[C@H]1O[C@H]1O[C@H](CO)[C@@H](O)[C@H](N)[C@H]1O,-,-,MIC,-,1S,2.5 µg/mL
CCCCCC(=O)N1SC(NC(=O)OC)=Nc2ccccc21,BACTEC,-,MIC bound,-,H37Rv,>12.5 µg/mL
O=[N+]([O-])c1cccc2c(C3CCCC3)cc(C3CCCC3)nc12,-,-,MIC,-,Isoniazid-resistant,12.5 µg/mL
CCCCCCCCCCCC(=O)N/N=C/c1ccccc1,-,-,MIC,-,-,>40 µg/mL
Cc1nn(C(=O)c2ccncc2)c(C)c1N=Nc1ccc(Cl)cc1,BACTEC,-,inhibition,12.5 µg/mL,H37Rv,16%
CCCCCCCCS(=O)(=O)CC(N)=O,-,-,MIC,-,5D5178,≤6.25 µg/mL
CCCCCCCCOc1ccccc1NC(=O)OCC[NH+]1CCCC1,-,-,MIC,-,My 331/88,16 µM
CO[C@H]1/C=C/O[C@@]2(C)Oc3c(C)c(O)c4c(O)c(c(/C=N/N5CCN(C)CC5)c(O)c4c3C2=O)NC(=O)/C(C)=C\C=C\[C@H](C)[C@H](O)[C@@H](C)[C@@H](O)[C@@H](C)[C@H](OC(C)=O)[C@@H]1C,-,-,MIC,-,Isolate 13,<0.03 µg/mL
COc1c(C(C)=O)cc(N)c2nc(C(C)(C)C)ccc12,-,-,MIC,-,H37Rv,>6.25 µg/mL
N/N=C(/Cc1ccccc1)NNC(N)=S,BACTEC,-,MIC bound,-,H37Rv,>12.5 µg/mL
C/C(CCC(=O)O)=N/NC(=O)c1ccccc1,-,-,MIC,-,-,1 µg/mL
O=C(/N=C/c1ccccc1Br)NCCCN1c2ccccc2Sc2ccccc21,agar,-,inhibition,25 µg/mL,H37Rv,25%
CC[C@@H](CO)NCCN[C@@H](CC)CO,-,-,MIC,-,Isolate 9,16 µg/mL
FC(F)(F)c1ccc2c(c1)N(CCCN1CCN(C3CC3)CC1)c1ccccc1S2,-,VERO,MIC,-,H37Rv,12.5 µg/mL
O=C(NNC(=O)c1ccc(Cl)cc1)c1ccc(Cl)cc1,-,-,MIC,-,-,>200 µg/mL
CCCCCCCOc1c(C(C)=O)cc([N+](=O)[O-])c2nccc(CC)c12,-,-,MIC,-,H37Rv,1 µg/mL
CC1=CC(=O)C(/C=C(\C)[N+](=O)[O-])=CC1=O,BACTEC,-,inhibition,128 µg/mL,H37Rv,100%
CC(NNC(=O)c1ccncc1)c1ccc(F)cc1,-,-,MIC,-,H37Rv (thiacetazone-resistant),>31.25 µg/mL
O=[N+]([O-])c1cccc2c(C3CCCCC3)cc(C3CCCCC3)nc12,-,-,MIC,-,Isoniazid-resistant,6.25 µg/mL
CCCC12C=C(OC)C(=O)C=C1OC(c1ccc3c(c1)OCO3)C2C,BACTEC,-,inhibition,12.5 µg/mL,H37Rv,8%
O=C1c2ccccc2-n2c1nc1ncccc1c2=O,-,-,MIC,-,MDR 10038,1 µg/mL
CN(C)CC(/C(Cc1ccccc1)=N/NC(=O)C[n+]1ccccc1)c1ccccc1.[Cl-],BACTEC,-,inhibition,12.5 µg/mL,H37Rv,22%
CCCCOc1ccc(NC(=O)OCCN2CCCCC2)cc1,-,-,MIC,-,My 331/88,125 µM
NC1=Nc2ncccc2C(=O)NN1,resazurin,-,MIC bound,-,H37Rv,>6.25 µg/mL
O=[N+]([O-])c1cccc2ccc(C3CCCCC3)nc12,-,-,MIC,-,H37Rv,6.25 µg/mL

6 of the rows above, restated:

compound | method | cells | read-out | tested at | strain | value
CCCCCCCCCOc1ccc(NC(=O)OCC[NH+]2CCCC2)cc1 | - | - | MIC | - | My 331/88 | 16 µM
O=C(N/N=C/c1ccco1)C(=O)N/N=C/c1ccco1 | BACTEC | - | inhibition | 12.5 µg/mL | H37Rv | 17%
C/C=C/c1ccc2c(c1)[C@@H](C)[C@H](c1ccc(OC)cc1)O2 | resazurin / absorbance | - | MIC | - | Clinical isolate 49 | 7.8 µg/mL
O=S(=O)(c1ccc(Cl)cc1)c1cnc2ccccc2c1N1CCCC1 | resazurin | - | MIC | - | Clinical isolate | 8 µg/mL
O=[N+]([O-])c1cccc2c(C3CCCCC3)cc(C3CCCCC3)nc12 | - | - | MIC | - | Isoniazid-resistant | 6.25 µg/mL
Cc1cc(=O)oc2c(C)c3oc4ccncc4c3cc12 | BACTEC | - | inhibition | 12.5 µg/mL | H37Rv | 5%

ECn is the concentration giving n% inhibition of infection, replication or growth. Neighbouring rows are from separate reports. An empty or dashed field is not shown. Inhibition is in % at the dose shown (toxicity tests: loss of growth or viability).